Measured values from several laboratories, pooled; numbers as filed in NIAID ChemDB.

Shared fields: enzyme or target tests; species: Toxoplasma gondii; protein: Dihydrofolate reductase; measure: IC50

ICn: concentration for n% inhibition. Conditions beyond the fields shown may differ between rows.

| smiles | result |
|---|---|
| CC1(C)C2Cc3c(N)nc(N)nc3C1C2 | 39 µM |
| CC(Cc1c[nH]c2nc(N)nc(N)c12)c1ccc2ccccc2c1 | 0.0148 µM |
| CC(C)(C)C1CCc2nc(N)nc(N)c2C1 | 0.018 µM |
| CC(Cc1c[nH]c2nc(N)nc(N)c12)c1ccccc1 | 0.138 µM |
| COc1ccc2ccc3cc4c(N)nc(N)nc4nc3c2c1 | 1.85 µM |
| Nc1nc(N)c2cc(COC(=O)c3ccccc3Cc3ccccc3)ccc2n1 | 0.31 µM |
| Nc1nc(N)c2c(n1)C1CCC2C1 | 5.6 µM |
| C/C(=C\c1coc2nc(N)nc(N)c12)c1ccc(Cl)cc1Cl | 10 µM |
| COc1ccc2ccc3nc4nc(N)nc(N)c4cc3c2c1 | 0.34 µM |
| COc1cc(C(C)Cc2coc3nc(N)nc(N)c23)cc(OC)c1OC | 27 µM |
| COc1ccc2c(c1)CCc1cc3c(N)nc(N)nc3nc1-2 | 0.11 µM |
| Nc1nc(N)c2cc(COC(=O)c3cccc(-c4ccccc4)c3)ccc2n1 | 0.18 µM |
| CC(Cc1coc2nc(N)nc(N)c12)c1ccc(Cl)cc1 | 40 µM |
| Nc1nc(N)c2cc(COC(=O)c3ccsc3)ccc2n1 | 0.33 µM |
| CC(Cc1coc2nc(N)nc(N)c12)c1ccc(Cl)cc1Cl | 2.9 µM |
| Nc1nc(N)c2cc(COC(=O)C(c3ccccc3)c3ccccc3)ccc2n1 | 6.4 µM |
| CC(Cc1coc2nc(N)nc(N)c12)c1ccccc1Cl | 11 µM |
| Nc1nc(N)c2cc(COC(=O)c3ccc(-c4ccccc4)cc3)ccc2n1 | 1.73 µM |
| C/C(=C/c1coc2nc(N)nc(N)c12)c1cc(Cl)c(Cl)c(Cl)c1 | 27 µM |
| COc1ccc2c(c1)-c1nc3nc(N)nc(N)c3cc1CC2 | 0.57 µM |
| COc1cccc(C(C)Cc2coc3nc(N)nc(N)c23)c1 | 28 µM |
| Nc1nc(N)c2cc(COC(=O)c3cc4ccccc4c4ccccc34)ccc2n1 | 1.8 µM |
| C/C(=C/c1coc2nc(N)nc(N)c12)c1ccc(Cl)cc1 | 11 µM |
| CC(Cc1c[nH]c2nc(N)nc(N)c12)c1ccc2c(c1)Cc1ccccc1-2 | 0.0483 µM |

Repeating the first 2 entries:

smiles,result
CC1(C)C2Cc3c(N)nc(N)nc3C1C2,39 µM
CC(Cc1c[nH]c2nc(N)nc(N)c12)c1ccc2ccccc2c1,0.0148 µM